Biological target: SARS-CoV-2 receptor-binding domain (RBD), wild type (SARS-CoV-2, UniProt P0DTC2, DyLight 488 (NHS ester, about 1.9 dye/protein) in the FRET assay only)
Assay: cell-based or functional assay

B1: WNb 10 (VHH)
VHH: QVQLQESGGGLVQPGGSLRLSCAASGFTFRRYLMGWARQVPGKGLEWVSGIYSDGSTYYADSVKGRFTISRDNAKNTVYLQMNSLKPEDTAVYYCAKDRMDGSTWPERDFGSWGQGTQVTVSS
  neutralisation of WT SARS-CoV-2, MNV assay; blocks RBD-ACE2: 68.1 nM

— paper PMC8126837 (Proceedings of the National Academy of Sciences of the …, 2021)
